Reference: PubChem BioAssay AID624099 (ICCB-Longwood, 2012)
Shown is an unselected part of about 21,000 reagents tested. 497 of all reagents (2.4%) count as active. 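Higher z means weaker E2 silencing; only reporter increases were scored, and knock-downs that hurt cell survival may mask genuine repressor factors.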 Unmarked entries are inactive. Reagents against one gene are numbered here.

Aim: 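Host factors E2 relies on to silence an HPV18 LCR reporter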 (primary screen)
Cells: human C33A cervical carcinoma cells (HPV-negative) stably expressing BPV1 E2 and an HPV18 LCR luciferase reporter
Knock-down reagent: siRNA pool against human genes, 40 nM
Timing: 72 h
Detection: 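Per-well luciferase luminescence, z-scored on each plate against the plate mean and SD with control wells left out, then averaged across three replicate plates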
Scale: mean z-score and z-score: higher = stronger reporter signal, weaker E2 silencing
Active means: 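Hit if mean z-score reaches 2 and two or more of three replicate z-scores also reach 2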

| gene | pool no. | mean z-score | z-score, replicate A | z-score, replicate B | z-score, replicate C |
| --- | --- | --- | --- | --- | --- |
| VRTN | 1 | -0.67 | -0.72 | -1.08 | -0.21 |
| NUS1 | 1 | -0.02 | -0.17 | 0.14 | -0.04 |
| DPEP2 | 1 | -0.67 | -0.96 | -0.39 | -0.66 |
| PRKCI | 1 | -0.86 | -1.04 | -1.02 | -0.54 |
| RGL4 | 1 | 0.75 | 0.84 | 0.39 | 1.03 |
| SEMA3A | 1 | -0.52 | -0.44 | -0.51 | -0.59 |
| GALK2 | 1 | 0.29 | 0.33 | 0.1 | 0.44 |
| ARX | 1 | 0.13 | 0.1 | 0.13 | 0.17 |
| RAC2 | 1 | -0.17 | -0.2 | -0.17 | -0.13 |
| MYO5C | 1 | 0.04 | 0.09 | 0.17 | -0.13 |
| CLEC11A | 1 | 0.61 | 0.53 | 0.58 | 0.74 |
| PSMD13 | 1 | -1.23 | -1.3 | -1.22 | -1.18 |
| KLHL42 | 1 | 1.32 | 1.17 | 1.28 | 1.51 |
| SNX9 | 1 | 0.65 | 0.61 | 0.88 | 0.45 |
| PLCXD2 | 1 | -1.25 | -1.16 | -1.44 | -1.15 |
| GOT2 | 1 | -0.19 | 0.05 | -0.34 | -0.29 |
| ZFYVE21 | 1 | 0.95 | 1.03 | 1.27 | 0.55 |
| NCLN | 1 | -0.66 | -0.56 | -0.71 | -0.71 |
| SMIM32 | 1 | 0.61 | 0.86 | 0.36 | 0.61 |
| NFE2 | 1 | -0.32 | -0.42 | -0.23 | -0.3 |
| ZC3H11A | 1 | -1.37 | -0.89 | -1.49 | -1.73 |
| FAM47B | 1 | -0.71 | -0.77 | -0.61 | -0.73 |
| MRPS21 | 1 | 0.4 | 0.35 | 0.38 | 0.46 |
| OR6V1 | 1 | -0.54 | -0.6 | -1.05 | 0.03 |
| VPS37A | 1 | -0.31 | -0.06 | -0.15 | -0.73 |
| CEP170B | 1 | 0.23 | 0.37 | 0.23 | 0.08 |
| LOC387939 (retired record) | 1 | -0.04 | -0.15 | 0.05 | -0.01 |
| MARK1 | 1 | 0.31 | 0.36 | 0.59 | -0.01 |
| LOC389172 (retired record) | 1 | -1.29 | -1.29 | -1.27 | -1.3 |
| KPTN | 1 | -0.78 | -0.6 | -0.85 | -0.88 |
| IFT81 | 1 | -1.31 | -1.29 | -1.34 | -1.29 |
| PNCK | 1 | 0.5 | 0.57 | 0.58 | 0.35 |
| OR1E2 | 1 | 0.04 | -0.03 | 0.07 | 0.1 |
| SLC35D3 | 1 | -0.89 | -0.53 | -1.11 | -1.04 |
| FBP1 | 1 | 0.52 | 0.56 | 0.36 | 0.65 |
| EGFLAM | 1 | 1.73 | 1.96 | 1.73 | 1.5 |
| LIMS3 | 1 | -1.15 | -1.25 | -1.81 | -0.39 |
| NRN1L | 1 | 0.88 | 1.07 | 0.73 | 0.85 |
| MDGA1 | 1 | 1.42 | 1.29 | 1.59 | 1.39 |
| PIP4P1 | 1 | 0.8 | 0.79 | 0.65 | 0.97 |
| BIRC5 | 1 | 0.29 | 0.58 | 0.21 | 0.09 |
| ZSCAN18 | 1 | -0.15 | -0.07 | -0.07 | -0.3 |
| SLC26A7 | 1 | 0.91 | 0.82 | 0.72 | 1.2 |
| GPAT3 | 1 | 0.79 | 0.78 | 1.06 | 0.53 |
| DIS3L | 1 | -0.41 | -0.59 | -0.51 | -0.14 |
| ZNF749 | 1 | 0.02 | 0.05 | -0.03 | 0.03 |
| FCRL3 | 1 | 1.58 | 1.84 | 1.35 | 1.55 |
| SPANXN3 | 1 | 0.2 | 0.07 | 0 | 0.52 |
| TTC23 | 1 | 2.24 (active) | 2.21 | 2.12 | 2.38 |
| RBM39 | 1 | -0.62 | -0.67 | -0.51 | -0.66 |
| CPA4 | 1 | 1.76 | 2.19 | 1.8 | 1.28 |
| LOC391088 (retired record) | 1 | -0.74 | -0.61 | -1.13 | -0.48 |
| SYK | 1 | -0.05 | -0.18 | 0.17 | -0.14 |
| CSPG4P2Y | 1 | 0.15 | 0.42 | 0.22 | -0.19 |
| POM121L1P | 1 | 0.09 | 0.12 | 0.32 | -0.17 |
| POM121L1P | 2 | 0.39 | 0.27 | 0.3 | 0.62 |
| RPS2P40 | 1 | -1.48 | -0.37 | -1.72 | -2.34 |
